A mixed list of measured activities; the numbers were collected in NIAID ChemDB.

Shared fields: tests in culture; organism: Herpes simplex virus 2; cells: VERO; read-out: EC50

Rows are shuffled and stem from different studies. ECn: concentration that inhibits the pathogen or its effect by n%.

CC/C=C/C/C=C/C/C=C/CCCCCCCC(=O)OCC(CO[C@@H]1O[C@H](CO)[C@@H](O)[C@H](O)[C@H]1O)OC(=O)CCCCCCC/C=C\C/C=C\CCCCC ; strain or isolate: 186 ; method: plaque count ; value: <50 µg/mL
CC(C)=CCCC(COS(=O)(=O)O)C1CCC2C3CC=C4C[C@H](O)[C@@H](OS(=O)(=O)O)CC4(C)C3CCC12C ; strain or isolate: TYPE G ; method: plaque count ; value: 51.5 µg/mL
O=C(NS(=O)(=O)OC[C@H]1O[C@@H](n2ccc(=O)[nH]c2=O)[C@H](O)[C@@H]1O)O[C@H]1O[C@H](COC(=O)c2ccccc2)[C@@H](OC(=O)c2ccccc2)[C@H](OC(=O)c2ccccc2)[C@@H]1OC(=O)c1ccccc1 ; strain or isolate: Lovelace ; method: plaque count ; value: >200 µg/mL
CC(=O)O[C@H]1CC2=CCC3C(CCC4(C)C(C(CCC=C(C)C)COS(=O)(=O)O)CCC34)C2(C)C[C@@H]1OS(=O)(=O)O ; strain or isolate: G ; method: plaque count ; value: 22.4 µg/mL
Nc1ncnc2c1ncn2[C@H]1C[C@]12C[C@H]2CO ; method: plaque count ; value: >50 µM
Nc1ccn([C@@H]2O[C@H](CO)[C@@H](O)[C@@H]2O)c(=O)n1 ; strain or isolate: MS ; method: plaque count ; value: 0.2 µM
Nc1nc2c(ncn2COCCO)c(=O)[nH]1 ; strain or isolate: 333 ; method: plaque count ; value: 0.6 µM
Nc1nc2c(ncn2N2C[C@H](CO)[C@H]2CO)c(=O)[nH]1 ; method: cytopathic effect ; value: 6.32 µg/mL
O=c1[nH]c(=O)n([C@@H]2O[C@H](CO)[C@@H](O)[C@@H]2F)cc1I ; strain or isolate: G ; method: plaque count ; value: 0.009 µM
CCCCCCCCCCCCCCCC(=O)OC[C@H]1O[C@H](OC(=O)NS(=O)(=O)OC[C@H]2O[C@@H](n3ccc(=O)[nH]c3=O)[C@H](OC(C)C)[C@@H]2OC(C)C)[C@H](OC(=O)CCCCCCCCCCCCCCC)[C@@H](OC(=O)CCCCCCCCCCCCCCC)[C@@H]1OC(=O)CCCCCCCCCCCCCCC ; strain or isolate: Lovelace ; method: plaque count ; value: >100 µg/mL
O=C(O)P(=O)(O)O ; strain or isolate: G-FAU-C2 ; method: plaque count ; value: 26 µM
O=C(NS(=O)(=O)OC[C@H]1O[C@@H](n2ccc(=O)[nH]c2=O)[C@H](O)[C@@H]1O)O[C@H]1O[C@H](COC(=O)c2ccccc2)[C@@H](OC(=O)c2ccccc2)[C@H](OC(=O)c2ccccc2)[C@H]1OC(=O)c1ccccc1 ; strain or isolate: Lovelace ; method: plaque count ; value: 26 µg/mL
Nc1ncnc2c1ncn2[C@H]1C[C@@]12C[C@@H]2CO ; method: plaque count ; value: >50 µM
Nc1ncnc2c1ncn2[C@@H]1C[C@H](CO)[C@@H](O)[C@@H]1O ; strain or isolate: G-FMAU-C1 ; method: plaque count ; value: 73 µM
Nc1nc2c(ncn2COCCO)c(=O)[nH]1 ; value: 1.38 µg/mL
Cn1cc(C(=O)NCc2ccc(Cl)cc2)c(=O)c2cc(/C=C\CO)cc(F)c21 ; strain or isolate: MS ; method: plaque count ; value: 2 µM
Nc1nc2c(ncn2[C@H]2C[C@]23C[C@H]3CO)c(=O)[nH]1 ; method: plaque count ; value: >50 µM
Nc1nc2c(ncn2[C@@H]2C[C@H](CO)C[C@H]2O)c(=O)[nH]1 ; strain or isolate: MS ; method: cytopathic effect ; value: 260 µg/mL
CC(=O)O[C@H]1C[C@H](n2cc(C)c(=O)[nH]c2=O)O[C@@H]1COS(=O)(=O)NC(=O)O[C@H]1O[C@H](COC(=O)c2ccccc2)[C@@H](OC(=O)c2ccccc2)[C@H](OC(=O)c2ccccc2)[C@H]1OC(=O)c1ccccc1 ; strain or isolate: Lovelace ; method: plaque count ; value: 25 µg/mL
CC(C)=CCC[C@@H](COS(=O)(=O)O)C1CCC2C3CC[C@H]4C[C@H](OS(=O)(=O)O)[C@@H](O)CC4(C)C3CCC21C ; strain or isolate: TYPE G ; method: plaque count ; value: 24.3 µg/mL
CC(C)O[C@@H]1[C@H](OC(C)C)[C@@H](COS(=O)(=O)NC(=O)O[C@H]2O[C@H](COC(=O)c3ccccc3)[C@@H](OC(=O)c3ccccc3)[C@H](OC(=O)c3ccccc3)[C@@H]2OC(=O)c2ccccc2)O[C@H]1n1ccc(=O)[nH]c1=O ; strain or isolate: Lovelace ; method: plaque count ; value: >100 µg/mL
Nc1ccn([C@H]2O[C@@H](CO)[C@H](O)[C@H]2F)c(=O)n1 ; strain or isolate: G ; method: plaque count ; value: 0.07 µM
Cn1cc(C(=O)NCc2ccc(Cl)cc2)c(=O)c2cc(CN3CCOCC3)ccc21 ; strain or isolate: MS ; method: plaque count ; value: 1.3 µM
CC(C)O[C@@H]1[C@H](OC(C)C)[C@@H](COS(=O)(=O)NC(=O)O[C@@H]2C[C@@H](OC(=O)c3ccccc3)[C@H](OC(=O)c3ccccc3)[C@@H](COC(=O)c3ccccc3)O2)O[C@H]1n1ccc(=O)[nH]c1=O ; strain or isolate: Lovelace ; method: plaque count ; value: 66 µg/mL
CCCCCCCCCCCC(=O)OC[C@H](CO[C@@H]1O[C@H](CO)[C@@H](O)[C@H](O)[C@H]1O)OC(=O)CCCCCCCCCCC ; strain or isolate: 186 ; method: plaque count ; value: 40 µg/mL
CC(C)=CCCC(CO)C1CCC2C3CC=C4C[C@H](O)[C@@H](O)CC4(C)C3CCC12C ; strain or isolate: TYPE G ; method: plaque count ; value: 17.5 µg/mL
CCCCCCCCCCCCCCCCCCCCCC(=O)OCC(CO[C@@H]1O[C@H](CO)[C@@H](O)[C@H](O)[C@H]1O)OC(=O)CCCCCCCCCCCCCCCCCCCCC ; strain or isolate: 186 ; method: plaque count ; value: >50 µg/mL
Nc1ncnc2c1ncn2[C@H]1C[C@@]12C[C@H]2CO ; method: plaque count ; value: >50 µM